Measured values from several laboratories, pooled; numbers as filed in NIAID ChemDB.

Shared fields: toxicity to cultured cells; cells: VERO; endpoint: CC50

CCn: concentration that lowers growth or viability of the cells by n%. Rows are shuffled and stem from different studies.

smiles,result
CCOC(=O)c1noc(/C=C/c2ccccc2)c1C(=O)c1ccccc1,95.17 µM
O=c1[nH]cnc2c1ncn2[C@H]1O[C@@H](CO)C=C1F,>100 µM
O=C(NC(=O)C1N=C(c2ccccc2)c2ccccc2NC1=O)c1csc2ccccc12,5 µM
COc1ccc2c(c1)[nH]c1c3ccoc3c(C=O)cc21,27 µM
Cn1c2ccccc2c2c3c(c4c5ccccc5[nH]c4c21)C(=O)NC3=O,>31 µM
CC(C)OC(=O)c1noc(/C=C/c2ccccc2)c1C(=O)c1ccccc1,100.6 µM
CCCCCCCCCC(=O)OCCN1CCN(CCCN2c3ccccc3Sc3ccc(C(F)(F)F)cc32)CC1,3.39 µg/mL
O=S(=O)(O)c1ccc(Cl)c(-c2c3nc(c(-c4c(Cl)ccc(S(=O)(=O)O)c4Cl)c4ccc([n-]4)c(-c4c(Cl)ccc(S(=O)(=O)O)c4Cl)c4ccc([n-]4)c(-c4c(Cl)ccc(S(=O)(=O)O)c4Cl)c4nc2C=C4)C=C3)c1Cl.[Na+],0.31 µM
CCn1cc(C(=O)NC)c(=O)c2ccc(-c3ccncc3)cc21,>25 µg/mL
COc1ccc2[nH]c3c4[nH]c5ccc(OC)cc5c4c4c(c3c2c1)C(=O)NC4=O,>60 µM
Cc1cn([C@H]2C[C@H](N=[N+]=[N-])[C@@H](CO)O2)c(=O)[nH]c1=O,29 µM
O=C1Nc2ccccc2C(c2ccccc2)=NC1NS(=O)(=O)c1ccccc1F,10 µM
CCCCn1cc(C(N)=O)c(=O)c2ccc(-c3ccncc3)cc21,>6.25 µg/mL
CO[C@@]12[C@H](COC(=O)NCCO)C3=C(C(=O)C(C)=C(N)C3=O)N1C[C@H]1[C@@H]2N1C,>500 µg/mL
NNC(=O)c1c[nH]cc1-c1ccc(Cl)cc1,16 µg/mL
Nc1ncnc2c1ncn2[C@@H]1O[C@@H](CO)C=C1F,>100 µM
NC(=O)c1cn(-c2ccc(Br)cc2)c2cc(-c3ccncc3)ccc2c1=O,>12.5 µg/mL
CCCCCC(=O)O[C@H]1C[C@H](n2cc(/C=C/Br)c(=O)[nH]c2=O)O[C@@H]1COP1(=O)OCc2cccc(C)c2O1,13.8 µg/mL
NC(=O)c1cn(-c2ccc(Cl)cc2)c2cc(-c3ccncc3)ccc2c1=O,>25 µg/mL
O=C(NC(=O)C1N=C(c2ccccc2)c2ccccc2NC1=O)C1CCCCC1,2 µM
CC(C)OC(=O)c1cc(-c2ccc(-c3ccccc3)cc2)on1,>128 µM
NC(=O)c1c[nH]cc1-c1ccc(Cl)cc1,16 µg/mL
COc1ccc(NC(=S)Nc2ccc(/C(C)=N/NC(=O)c3ccncc3)cc2)cc1,>149 µM
CC(C)(C)c1cccc2c1OP(=O)(OC[C@H]1O[C@@H](n3cc(/C=C/Br)c(=O)[nH]c3=O)C[C@@H]1O)OC2,36.2 µg/mL
NC(=O)c1c(O)c2ccc(-c3ccncc3)cc2n(-c2ccc(F)cc2)c1=O,>100 µg/mL
O=C(NC(=O)C1N=C(c2ccccc2)c2ccccc2NC1=O)c1ccco1,1 µM
O=C1CCCN2C(CC1)C[C@@]13CN4CCCC/C=C/CC[C@@](O)(C=C(c5nccc6c5[nH]c5c(O)cccc56)[C@H]1CC4)[C@@H]23,>4.76 µg/mL
Cc1cccc2c1OP(=O)(OC[C@H]1O[C@@H](n3cc(/C=C/Br)c(=O)[nH]c3=O)C[C@@H]1OC(=O)[C@@H]1CCCN1)OC2,88.9 µg/mL
Cc1cn([C@H]2C[C@H](N)[C@@H](CO)O2)c(=O)[nH]c1=O,<100 µM
O=C(N=CN1CCN(c2cc3c(cc2F)c(=O)c(C(=O)O)cn3C2CC2)CC1)c1cnccn1,>10 µg/mL
O=C1NC(=O)c2c1c1c3cc(Br)ccc3[nH]c1c1[nH]c3ccc(Br)cc3c21,>125 µM
CCCCCCCCC/C=N/Nc1ccc([N+](=O)[O-])cn1,>10 µg/mL
Nc1nccc2c1ncn2[C@@H]1C=C(CO)[C@@H](O)[C@H]1O,0.05 µg/mL
CC(C)C(=O)O[C@H]1C[C@H](n2cc(/C=C/Br)c(=O)[nH]c2=O)O[C@@H]1COP1(=O)OCc2ccccc2O1,38.6 µg/mL
CCn1c2ccccc2c2c3c(c4c5ccccc5[nH]c4c21)C(=O)NC3=O,>125 µM
CCn1cc(C(=O)N(C)C)c(=O)c2ccc(-c3ccncc3)cc21,>100 µg/mL
O=C(O)c1cn(Cc2ccc(Cl)cc2)cc1-c1ccc(Cl)cc1,8 µg/mL
Nc1nc2c(ncn2COCCOP(=O)(O)C(=O)O)c(=O)[nH]1,>2857 µM
O=C1NC(=O)C(c2c[nH]c3ccccc23)C1c1c[nH]c2ccccc12,34 µM
COc1cc(CO)cc2c1[nH]c1ccccc12,>128 µM
C[C@@H](N)C(=O)O[C@H]1C[C@H](n2cc(/C=C/Br)c(=O)[nH]c2=O)O[C@@H]1COP1(=O)OCc2ccccc2O1,>128 µg/mL
O=C1Nc2ccccc2C(c2ccccc2)=NC1NS(=O)(=O)c1cccc(Br)c1,10 µM
O=c1[nH]c(=O)n([C@H]2C[C@H](O)[C@@H](COP3(=O)OCc4cc(-c5ccccc5)ccc4O3)O2)cc1/C=C/Br,>128 µg/mL
Oc1ccc2c(c1)[nH]c1ccccc12,>128 µM
O=c1cc(-c2ccccc2)oc2cc(O)cc(O)c12,10 µg/mL
O=[N+]([O-])Cc1cnc2nncn2n1,5.5 µg/mL
O=C(NNC=Nc1ccc(C(=O)O)c(O)c1)c1ccncc1,>62.5 µg/mL
CCN1C[C@]2(COC)CC[C@H](O)[C@]34C1[C@@](O)([C@@H](OC)[C@H]23)[C@@]1(O)C[C@H](OC)C2C[C@@H]4[C@@H]1[C@H]2O,64 µg/mL
CC(=O)OC1CC2Cc3ccccc3C3(O)COC213,4.46 µg/mL
O=C1NC(=O)c2c1c1c3cc(O)ccc3[nH]c1c1[nH]c3ccc(O)cc3c21,>31 µM
CC1CCN(C(=S)S)CC1.CC1CCNCC1,<0.41 µg/mL
C/C(=N\NC(=O)c1ccncc1)c1ccc(NC(=S)Nc2ccc(Br)cc2)cc1,133 µM
Nc1nccc2c1ncn2[C@@H]1C[C@H](CO)[C@@H](O)[C@H]1O,0.33 µg/mL
Oc1cccc(-c2c3nc(c(-c4cccc(O)c4)c4ccc([nH]4)c(-c4cccc(O)c4)c4nc(c(-c5cccc(O)c5)c5ccc2[nH]5)C=C4)C=C3)c1,3.79 µM
Cc1ccc(NCCN(C)C)c2c(=O)c3ccc(O)cc3sc12,<0.51 µg/mL
C/C=C1/[C@H](O[C@@H]2O[C@H](CO)[C@@H](O)[C@H](O)[C@H]2O)OC=C(C(=O)OC)[C@H]1CC(=O)OCCc1ccc(O)c(O)c1,213.4 µM
NC(=O)c1cn(-c2ccccc2F)c2cc(-c3ccncc3)ccc2c1=O,>1.6 µg/mL
C=C[C@]1(C)C=C2c3c[nH]c4cccc(c34)C(C)(C)[C@H]2C[C@H]1O,>100 µM
CCOC(=O)c1cc(-c2cccs2)on1,>128 µM
O=c1cnn([C@@H]2O[C@H](CO)[C@@H](O)[C@H]2O)c(=O)[nH]1,>100 µg/mL
CCCCCN(CCCCC)CCCNc1ccc(C)c2sc3ccccc3c(=O)c12,17.1 µg/mL
COC1=C(C)C(C)(O)c2[nH]c3ccc(OC)cc3c2C1=O,>128 µM
COc1cc2c(cc1O)N=CC1CCC(O)N1C2=O,17.08 µg/mL
[N-]=[N+]=N[C@H]1C[C@H](n2cc(C#CI)c(=O)[nH]c2=O)O[C@@H]1CO,14.4 µM
CCC1[C@H](OC2O[C@H](CO)[C@@H](O)[C@H](O)[C@H]2O)OC=C(C(=O)O)[C@H]1CC(=O)OCCc1ccc(O)cc1,250 µM
Cc1cccc2c1OP(=O)(OC[C@H]1O[C@@H](n3cc(/C=C/Br)c(=O)[nH]c3=O)C[C@@H]1OC(=O)[C@H]1CCCN1)OC2,90.5 µg/mL
CC(=O)/C(N=Nc1ccc(C(=O)N/N=C/c2ccc([N+](=O)[O-])o2)cc1)=C(\C)O,0.32 µg/mL
O=C1NC(=O)c2c1c1c3ccccc3[nH]c1c1c2c2ccccc2n1Cc1ccccc1,<31 µM
Nc1ccn(C[C@@H](CO)OCP(=O)(O)O)c(=O)n1,43 µg/mL
O=c1[nH]c(=O)n([C@H]2C[C@H](F)[C@@H](CO)O2)cc1/C(Cl)=C/I,18.5 µM
CCN(CC)C(=S)[S][Sn]([S]C(=S)N(CC)CC)([c]1ccccc1)[c]1ccccc1,0.42 µg/mL
O=C(O)P(=O)(O)O,190 µg/mL
CO[C@H]1/C=C/O[C@@]2(C)Oc3c(C)c(O)c4c(O)c(c(C5SCCS5)c(O)c4c3C2=O)NC(=O)/C(C)=C\C=C\[C@H](C)[C@@H]2OC(C)(C)O[C@H]([C@@H](C)[C@H](O)[C@@H]1C)[C@@H]2C,12.53 µg/mL
O=c1c(O)c(-c2ccc(O)cc2)oc2cc(O)cc(O)c12,20 µg/mL
C/C(=N\NC(=O)c1ccncc1)c1ccc(NC(=S)Nc2ccccc2)cc1,160 µM
Oc1ccc(Br)cc1-c1nc2cc(Cl)c(Cl)cc2nc1-c1cc(Br)ccc1O,3 µg/mL
O=C(N/N=C/NC(=O)c1cnccn1)c1ccncc1,>10 µg/mL
Cc1c2cc[n+]([O-])cc2c(C)c2c1oc1ccccc12,1.16 µg/mL
NC(=O)c1cn(-c2ccc(F)cc2)c2cc(-c3ccncc3)ccc2c1=O,>6.25 µg/mL
CC(C)(C)C1=CC(=C2C(=O)C(=O)c3ccccc3C2=O)C=C(C(C)(C)C)C1=O,10 µg/mL
CCn1cc(C(N)=O)c(=O)c2ccc(F)cc21,>50 µg/mL
O=C1Nc2ccccc2C(c2ccccc2)=NC1NCc1ccc([N+](=O)[O-])cc1,10 µM
C/C=C1\[C@H](OC2O[C@H](CO)[C@@H](O)[C@H](O)[C@H]2O)OC=C(C(=O)OC)[C@H]1CC(=O)OC,166.7 µM
Cn1cc(NC(=O)c2cc(NC(=O)CCCCCC(=O)Nc3cc(C(=O)Nc4cc(C(=O)NCCC(N)=[NH2+])n(C)c4)n(C)c3)cn2C)cc1C(=O)NCCC(N)=[NH2+],500 µg/mL
O=C1NC(=O)c2c1c1c3ccc(O)cc3[nH]c1c1[nH]c3cc(O)ccc3c21,84 µM
COC1=C(C)C(C)(O)c2[nH]c3ccccc3c2C1=O,>128 µM
COc1ccc2sc3c(C)ccc(NCC4CCCN5CCCCC45)c3c(=O)c2c1,3.86 µg/mL
O=C(NC(=O)C1N=C(c2ccccc2)c2ccccc2NC1=O)c1ccc2c(c1)CCO2,2 µM
Cn1cc(NC(=O)c2cc(NC(=O)CN=C(N)N)cn2C)cc1C(=O)NCCC(=N)N,>10 µg/mL
CC[n+]1ccc(C2=C3C=CC(=N3)C(c3cc[n+](CC)cc3)=C3C=CC(=C(c4cc[n+](CC)cc4)C4=NC(=C(c5cc[n+](CC)cc5)C5=CC=C2[NH2+]5)C=C4)[NH2+]3)cc1.[Cl-],5.9 µM
Cc1ccc(NC(=O)c2ccco2)cc1Cl,53.59 µg/mL
CCCCCCCCCC(=O)O[C@H]1C[C@H](n2cc(/C=C/Br)c(=O)[nH]c2=O)O[C@@H]1COP1(=O)OCc2cccc(C)c2O1,14.2 µg/mL
CCC[CH2][Sn]([Cl])([CH2]CCC)[S]C(=S)NCCNC(=S)[S][Sn]([Cl])([CH2]CCC)[CH2]CCC,0.14 µg/mL
CC1OP(=O)(OC[C@H]2O[C@@H](n3cc(/C=C/Br)c(=O)[nH]c3=O)C[C@@H]2O)Oc2cccc(Cl)c21,70.4 µg/mL